Data as given in patent US9745335B2 (Blirt S.A., priority 2012, dated 2017).

Tested on: Human erythrocytes
Assay: hemotoxicity determination (hemolytic activity)
Assay type: cell-based
Conditions: for WS EH50/IC50 (selectivity coefficient): EH50 divided by antifungal IC50; for WE WS(z)/WS(AmB) (effectivity factor): selectivity coefficient of derivative relative to native antibiotic
Description: The hemotoxicity determination was carried out by the serial dilutions method, according to the procedure described earlier (Slisz, M., et al., E., J Antibiot 57: 669-678 (2004). Human erythrocytes were suspended in the solution of saline to obtain a cell density of suspension 2×10^7/ml. Suitable amounts of diluted solutions of compounds were added to the cell suspension in tubes and were incubated at 37° C. for 30 minutes and then centrifuged (1700×g, 10 min, 4° C.). The concentration of hemoglobin in supernatant after centrifugation of erythrocytes suspension were determined by measuring the absorbance at wavelength λ=540 nm (A540). The maximum level of hemolysis was obtained after incubation of cells suspension in the presence of 0.1% Tritone X-100 (control sample). […] From these graphs, the EH50 values were read which are the interpolated concentrations of compound, for which the A540 value is exactly 50% of the A540 value measured for the control sample.

| SMILES | WS EH50/IC50 (selectivity coefficient) | WE WS(z)/WS(AmB) (effectivity factor) |
| --- | --- | --- |
| C[C@@H]1[C@H](O)[C@@H](C)/C=C/C=C/C=C/C=C/C=C/C=C/C=C/[C@H](O[C@@H]2O[C@H](C)[C@@H](O)[C@H](NC(=S)NCc3ccncc3)[C@@H]2O)C[C@@H]2O[C@](O)(C[C@@H](O)C[C@@H](O)[C@H](O)CC[C@@H](O)C[C@@H](O)CC(=O)O[C@H]1C)C[C@H](O)[C@H]2C(=O)O [Compound A29, N-{[3-(pyridin-4-yl)methyl]thioureidyl}amphotericin B] | >39.06 | >2.20 |
| C[C@@H]1[C@H](O)[C@@H](C)/C=C/C=C/C=C/C=C/C=C/C=C/C=C/[C@H](O[C@@H]2O[C@H](C)[C@@H](O)[C@H](NC(=S)NCCN3CCOCC3)[C@@H]2O)C[C@@H]2O[C@](O)(C[C@@H](O)C[C@@H](O)[C@H](O)CC[C@@H](O)C[C@@H](O)CC(=O)O[C@H]1C)C[C@H](O)[C@H]2C(=O)O [Compound A24, N-{[3-(2-morpholin-1-yl)ethyl]thioureidyl}amphotericin B] | >88.49 | >4.98 |
